The target in test [1] is T1, L-cysteine:1D-myo-inositol 2-amino-2-deoxy-alpha-D-glucopyranoside ligase (Mycobacterium tuberculosis) (UniProt P9WJM9).
T1 sequence (whole entry): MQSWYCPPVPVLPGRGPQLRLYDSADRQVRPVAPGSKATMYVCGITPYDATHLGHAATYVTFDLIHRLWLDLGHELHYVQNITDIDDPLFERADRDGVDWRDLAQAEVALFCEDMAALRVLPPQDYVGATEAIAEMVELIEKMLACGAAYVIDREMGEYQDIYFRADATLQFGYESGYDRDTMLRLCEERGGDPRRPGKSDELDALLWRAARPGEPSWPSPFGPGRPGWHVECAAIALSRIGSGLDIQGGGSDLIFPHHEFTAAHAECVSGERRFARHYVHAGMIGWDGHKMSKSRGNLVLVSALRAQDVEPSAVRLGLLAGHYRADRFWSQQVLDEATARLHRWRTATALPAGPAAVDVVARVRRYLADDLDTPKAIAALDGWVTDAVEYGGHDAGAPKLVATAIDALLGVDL
Kind of test: Inhibition of MshC in Mycobacterium tuberculosis Erdman ATCC 35801 assessed as reduction of mycothiol production at 20 to 75 uM after 7 days by HPLC based fluorescence assay relative to control. The conditions noted are these: Mycobacterium tuberculosis str. Erdman.

Test [2] concerns the target T1, L-cysteine:1D-myo-inositol 2-amino-2-deoxy-alpha-D-glucopyranoside ligase (Mycobacterium tuberculosis). As to the kind of experiment: Inhibition of MshC in Mycobacterium tuberculosis Erdman ATCC 35801 assessed as increase of GlcN-Ins accumulation at 20 to 75 uM after 7 days by HPLC based fluorescence assay relative to control. The conditions noted are these: Mycobacterium tuberculosis str. Erdman.

Consider `CN(CCCNC(=O)c1ccc2c(c1)N(Cc1cccc(Cl)c1)C(=O)c1ccccc1[S+]2[O-])C1CCCCC1` (configuration not stated), for which the values for the fold change (FC) in test [1] and in test [2] were 4 and 9, respectively.

Values taken from ChEMBL document CHEMBL1795211, “Evaluation of NTF1836 as an inhibitor of the mycothiol biosynthetic enzyme MshC in growing and non-replicating Mycobacterium tuberculosis” (Bioorg Med Chem, 2011).
